Test [1] has as its target T1, OXA-48 (Klebsiella pneumoniae, UniProt Q6XEC0). As to the kind of experiment: Example 8 inhibition assay with nitrocefin (aromatic acids): OXA-48. Format: biochemical. The following applies: for Ki: OXA-48 0.2 nM, 25 μM nitrocefin.
A further test addresses OXA-58 (Acinetobacter baumannii, UniProt Q2TR58). The following applies: OXA-58 0.1 nM, 25 μM nitrocefin.
For test [2], the target named is T1, OXA-48. Put plainly: OXA-48 inhibition assay using nitrocefin as reporter. Format: biochemical. The following applies: for Ki: read-out: Ki for OXA-48 inhibition, purified OXA-48, nitrocefin hydrolysis, Morrison fit.
Another test has as its target OXA-24 (Acinetobacter baumannii, UniProt Q8RLA6). Put plainly: Example 8 inhibition assay with nitrocefin (aromatic acids): OXA-24. Format: biochemical. The following applies: for Ki: OXA-24 0.2 nM, 25 μM nitrocefin; for fold decrease in activity against OXA-24 versus Compounds 2.1 and 2.2: relative to Compounds 2.1 and 2.2.

Amino acid sequences for entries named in this document (tags omitted). Residues count along the entry.
UniProt Q6XEC0, 23-265 limits assumed: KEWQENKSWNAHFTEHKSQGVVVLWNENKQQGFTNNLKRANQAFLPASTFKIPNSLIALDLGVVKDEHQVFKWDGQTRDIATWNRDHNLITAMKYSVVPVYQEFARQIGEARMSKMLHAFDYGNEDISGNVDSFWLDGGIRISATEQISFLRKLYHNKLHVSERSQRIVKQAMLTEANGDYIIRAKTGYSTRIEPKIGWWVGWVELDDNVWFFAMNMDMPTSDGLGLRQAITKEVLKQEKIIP
UniProt Q2TR58, 19-280 limits assumed: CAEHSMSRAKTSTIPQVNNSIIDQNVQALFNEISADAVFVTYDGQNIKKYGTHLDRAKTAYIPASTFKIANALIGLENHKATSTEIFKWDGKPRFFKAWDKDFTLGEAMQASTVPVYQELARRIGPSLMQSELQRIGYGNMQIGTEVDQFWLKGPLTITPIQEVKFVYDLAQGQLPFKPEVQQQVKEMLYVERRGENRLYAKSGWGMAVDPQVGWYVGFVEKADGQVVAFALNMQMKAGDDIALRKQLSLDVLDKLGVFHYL
UniProt Q8RLA6, 21-275 limits assumed: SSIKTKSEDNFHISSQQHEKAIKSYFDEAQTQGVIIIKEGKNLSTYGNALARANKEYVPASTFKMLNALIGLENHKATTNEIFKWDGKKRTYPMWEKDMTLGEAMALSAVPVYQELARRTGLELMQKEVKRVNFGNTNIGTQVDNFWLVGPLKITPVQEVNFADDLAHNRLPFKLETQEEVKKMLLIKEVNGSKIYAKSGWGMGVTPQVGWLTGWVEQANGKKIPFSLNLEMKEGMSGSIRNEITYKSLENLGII

Here are results for eleven compounds from US12286418B2, “Compounds and methods for treating or preventing bacterial infections” (priority 2019, dated 2025).

The term Ki denotes a measure of affinity in units of concentration, obtained from inhibition or displacement. For `OB(O)c1ccc2c(c1)Cc1ccccc1-2`, on OXA-48 [1], the “inhibition activity against OXA-48 in words” value is “below millimolar”. Moreover, the Ki on OXA-58 was 172 µM.

On to `CCOc1ccccc1N1CCN(c2cc(N3CCC(C(=O)O)CC3)ncn2)CC1`, for which the Ki on OXA-48 [2] was determined as 4.1 µM.

Regarding `Nc1ccc(N=Nc2ccc(S(=O)(=O)O)cc2)cc1S(=O)(=O)O`, the Ki was found to be 9.22 µM at OXA-24, 11 µM on OXA-48 [1] and 2.6 µM on OXA-58.

Consider `O=C(O)c1ccc(-c2ccc(C(=O)O)cn2)nc1`, for which the “fold decrease in activity against OXA-24 versus Compounds 2.1 and 2.2” value on OXA-24 was determined as 5 fold. The Ki at OXA-48 [1] came to 21 µM.

`O=S(=O)(O)c1ccc(-c2ccc(S(=O)(=O)O)cc2)cc1`: at OXA-48 [1], the Ki is 6 µM.

For `O=C(O)c1ccc(-c2cccc(C(=O)O)c2)cc1`, the “fold decrease in activity against OXA-24 versus Compounds 2.1 and 2.2” value on OXA-24 was determined as 10 fold. The “ligand efficiency (LE) for OXA-48 inhibition” value on OXA-48 [1] (LE=1.37 (pKi)/(# non-Hydrogen atoms)) worked out at 0.41. The same compound displayed a Ki on OXA-48 [1] of 4 µM. Also, the “fold more potent than Compound 2.1 for OXA-48 inhibition” value on OXA-48 [1] (relative to Compound 2.1) was “about 4 fold”.

`CCOc1ccccc1N1CCN(c2ccnc(N3CCC(C(=O)O)CC3)n2)CC1`: the Ki at OXA-48 [2] was determined as 0.76 µM.

As to `CCOc1ccccc1N1CCN(c2nccc(N3CCC(C(=O)O)CC3)n2)CC1`, the Ki at OXA-48 [2] worked out at 0.59 µM.

For the compound `O=C(O)c1cccc2c1Cc1ccccc1-2`, the “inhibition activity against OXA-48 in words” value against OXA-48 [1] is given as “below millimolar”. Moreover, at OXA-58, the Ki came to 313 µM.

Turning to `O=S(=O)(O)c1ccc2c(c1)Cc1cc(S(=O)(=O)O)ccc1-2`, the Ki on OXA-24 turned out to be 69 µM; on OXA-48 [1], 2.44 µM; at OXA-58 it was 5.6 µM.

On to `CCOc1ccccc1N1CCN(c2ncnc(N3CCC(NC(=O)[C@@H](N)CCCCN)(C(=O)O)CC3)n2)CC1`, for which the “fold reduction in potency (OXA-48 Ki) compared to CDD-97” value on OXA-48 [2] (relative to CDD-97) is 20 fold.
